Tests used:
[1] = system: EV-A71 H strain; assay: CPE protection assay, EV-A71 H strain (CellTiter-Glo); format: cell-based, enterovirus A71; details: CC50/EC50
[2] = system: EV-A71 AH08/06 strain; assay: CPE protection assay, EV-A71 clinical isolate AH08/06; format: cell-based, enterovirus A71; details: EV-A71 AH08/06, Huh7; ratio of CC50 to EC50
[3] = system: CV-A16 190-D1 strain; assay: CPE protection assay, CV-A16; format: cell-based, coxsackievirus A16; details: CV-A16 190-D1, RD; ratio of CC50 to EC50
[4] = system: CV-B3 Nancy strain; assay: CPE protection assay, CV-B3; format: cell-based, Coxsackievirus B3; details: RD, ratio of CC50 to EC50

| Compound | select index (SI) ([1]; Huh7 cells) | select index (SI) ([1]; RD cells) | select index (SI) ([1]; Vero cells) | SI [2] | SI [3] | SI [4] |
| --- | --- | --- | --- | --- | --- | --- |
| O=c1[nH]c(=NO)ccn1[C@@H]1O[C@H](CO)[C@@H](O)[C@H]1O [EIDD-1931, β-D-N^4-hydroxycytidine] | 7.69 | 15.69 | 2.0 | 12.22 | 19.43 | 3.85 |
| CC(C)C(=O)OC[C@H]1O[C@@H](n2ccc(NO)nc2=O)[C@H](O)[C@@H]1O [EIDD-2801, molnupiravir] | > 2.81 | > 1.43 | > 1.13 | > 3.3 | >2.23 | >1.15 |
